Consider two molecules from US20100143886A1, “IN VIVO HCV RESISTANCE TO ANTI-VIRAL INHIBITORS” (priority 2007, published 2010).

Format in all cases: in vivo
The subject of one data set is HCV genotype 3a. In words: AUGER quantification of S282T virus, chimpanzee dosed with Compound A (Example 3). The following applies: 2 mg per kg IV for 7 days.
In data set [1] the test system is HCV genotype 1a. In words: AUGER analysis: % R155K and % D168T virus, chimpanzee x120 re-dosed with Compound B (Example 2). The following applies: re-dosing oral 10 mg per kg q.d. for 7 days.
For data set [2], the system named is HCV genotype 1a. In words: Population sequencing and molecular clone sequencing of NS3/4a cDNA (Example 2). The note with it: chimpanzee x120 re-dosed oral 10 mg per kg q.d. 7 days.
The mark [3] stands for this setting: 0 Days (8 hours after initial dose).

Molecules are shown by their SMILES.

Take `C[C@@]1(O)[C@H](O)[C@@H](CO)O[C@H]1n1ccc2c(N)ncnc21` [Compound A]: in the data set on HCV genotype 3a (7 and 10 days upon cessation of dosing (days 13 and 16 of the study)), the “virus resistant to the polymerase inhibitor (S282T) in early rebound populations” value is given as “emerged”. For the same molecule, the “virus resistant to the polymerase inhibitor (S282T) in circulating population” value with HCV genotype 3a (13 days post-dosing (day 19 of the study)) is “disappeared from the circulating population”.

With `CC[C@@H]1C[C@]1(NC(=O)[C@@H]1C[C@@H]2CN1C(=O)[C@H](C(C)(C)C)NC(=O)OCC(C)(C)CCCCc1cccc3c1CN(C3)C(=O)O2)C(=O)NS(=O)(=O)C1CC1` [Compound B], the “AUGER Analysis: Chimp x120 % D168T” value turned out to be 0.8% in the data set with HCV genotype 1a [1] (setting [3]); 0.6% in the data set with HCV genotype 1a [1] (2 Days); 53% in the data set on HCV genotype 1a [1] (5 Days); 0.4% in the data set on HCV genotype 1a [1] (7 Days); 0.3% in the data set with HCV genotype 1a [1] (10 Days); 0.4% in the data set on HCV genotype 1a [1] (14 Days (7 days post-dosing)). Moreover, the “AUGER Analysis: Chimp x120 % D168T” value with HCV genotype 1a [1] (−1 Days (before re-dosing)) is recorded as 0.9%; in the data set on HCV genotype 1a [1] (−7 Days (before re-dosing)) it was 1.4%. The “AUGER Analysis: Chimp x120 % R155K” value in the data set with HCV genotype 1a [1] (setting [3]) amounted to 0.1%; in the data set on HCV genotype 1a [1] (2 Days), 98%; in the data set on HCV genotype 1a [1] (5 Days), 48%; in the data set on HCV genotype 1a [1] (7 Days), 89%; in the data set with HCV genotype 1a [1] (10 Days), 61%; in the data set with HCV genotype 1a [1] (14 Days (7 days post-dosing)), 36%. The “AUGER Analysis: Chimp x120 % R155K” value in the data set on HCV genotype 1a [1] (−1 Days (before re-dosing)) is listed as 0.1%; with HCV genotype 1a [1] (−7 Days (before re-dosing)) it was 0.2%. In addition, the “major genetic change by population sequencing” value with HCV genotype 1a [2] (day 2 and rebounding viral population) is given as “homogenous R155K change (AGG to AAG)”. For the same molecule, the “population sequence at codon 155” value in the data set on HCV genotype 1a [2] (day 5 sample) is on record as “heterogenous R155K”. For the same molecule, the “population sequence at codon 168” value with HCV genotype 1a [2] (day 5 sample) was “heterogenous at both the first (G/A) and second positions (A/C) of codon 168”. In addition, the “genotypes encoded by 19 molecular clones” value with HCV genotype 1a [2] (day 5 sample, one clone wild-type at both positions) was “either R155K and wild-type at 168, or wild-type at 155 and D168T”.
